Experimental data taken from PubChem BioAssay AID720517 (National Center for Advancing Translational Sciences (NCATS), 2013).
This is a selection; strong and weak results do not stand in their true shares. Records with an inconclusive call do not appear. Active and inactive are the calls of the source. Calls come from the whole dose curve; as a rule, active = well fitted activation curve with a large enough effect; inconclusive = small, poorly fitted or top-dose-only effect; inactive = flat fitted curve, though single readings scatter.

Experiment: qHTS for Inhibitors of Cell Surface uPA Generation: FP59 Counterscreen for Cherry-picked Compounds; note: 0% is about no effect
Conditions: FP59 anthrax toxin cytotoxicity counterscreen, cells; at 115 µM (top of the series)

CCN(CC)CCCOC(=O)C(O)(c1ccccc1)c1ccccc1
activity (protection from FP59): inactive: -1.07%
